From paper PMC7497253 (Chemmedchem, 2020)
Some peptides are written in HELM: one residue between dots, names in brackets for other building blocks, links after the first $.

Test: general procedure: peptide synthesis; 2-CTC resin; HBTU/HOBt; HATU/DIPEA for cyclisation
Details: whole synthesis, scale ≈125 μmol, TFA salt

PEPTIDE1{G.[3AMPhac].K.K.[dN(Ca)Lys]}$PEPTIDE1,PEPTIDE1,1:R1-5:R2$$$V2.0
isolated yield (based on the loaded Boc-dLys(Fmoc)-2-CTC-resin): 17% | isolated mass: 21.1 mg
